This is an account of results in article PMC5441103, “Antiviral activity of phenanthrenes from the medicinal plant Bletilla striata against influenza A virus” (BMC Complementary and Alternative Medicine, 2017).

Data set [1] has as its system influenza A/Sydney/5/97 (H3N2).
The next data set has as its target neuraminidase (NA) (Influenza A virus, UniProt Q80DL0). Conditions: read-out: NA inhibitory activity IC50.

The IC50 is the point on the concentration scale where inhibition reaches its midpoint.

Regarding “2,2′–dyhydroxyl-4,4′,7,7′-9′,10′-dihydro-1,6′-di-phenanthrene [Compound 11]”, in data set [1], the “Post-treatment SI (selective index; CC50mean/IC50mean)” value was 3.4 and the “Simultaneous treatment SI (selective index; CC50mean/IC50mean)” value is given as 3.1. Further, the IC50 at neuraminidase (NA) amounted to 57.6 ± 5.9 µM.
